PubChem BioAssay AID1259414, Drosophila RNAi Screening Center | 2018
The deposit covers about 24,000 reagents; shown is an unselected part of those with a known target gene and a result. In the full data, about 1,210 (5%) are marked active. 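Inactive calls also include excluded dsRNAs with several or no targets, genes unexpressed in JW18, and well A1, regardless of score.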 Reagent sequences are not shown.

- Assay: 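Fly genes that alter Wolbachia amount inside host cells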 (primary screen)
- Cells: Drosophila JW18 cells infected with Wolbachia
- Reagent: long dsRNA against Drosophila genes, 0.25 µg dsRNA per well of a 384-well plate
- Time to read-out: 5 days
- Challenge: cells persistently infected with Wolbachia before knock-down; no added drug
- Measured: 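Imaged fluorescence in situ signal for Wolbachia 23S rRNA per DAPI-counted host cell, given as a robust z-score within each plate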
- Scale: Wolbachia per cell robust z: higher = more Wolbachia per host cell than the plate typical
- Rule for the call: 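Active if absolute robust z reaches 1.5 in two or more of three replicates, leaving out multi- or no-target dsRNAs, genes unexpressed in JW18 and A1 wells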

After knock-down of CR42545 [DRSC03709], the screen gave Wolbachia per cell robust z, rep 1 = -0.48; Wolbachia per cell robust z, rep 2 = -1.21; Wolbachia per cell robust z, rep 3 = -0.0727; inactive.
CG6567 [DRSC16066] showed Wolbachia per cell robust z, rep 1 = 0.475; Wolbachia per cell robust z, rep 2 = 0.483; Wolbachia per cell robust z, rep 3 = -0.774; inactive.
With knock-down of flw [DRSC17992], the record shows Wolbachia per cell robust z, rep 1 = -3.9; Wolbachia per cell robust z, rep 2 = -2.71; Wolbachia per cell robust z, rep 3 = -5.15; inactive.
After knock-down of flw [DRSC18774], the screen gave Wolbachia per cell robust z, rep 1 = 1.08; Wolbachia per cell robust z, rep 2 = 1.03; Wolbachia per cell robust z, rep 3 = -1.54; inactive.
flw [DRSC25161] scored Wolbachia per cell robust z, rep 1 = 0.813; Wolbachia per cell robust z, rep 2 = 1.38; Wolbachia per cell robust z, rep 3 = 0.655; inactive.
Miox [DRSC10747] scored Wolbachia per cell robust z, rep 1 = -1.64; Wolbachia per cell robust z, rep 2 = 0.709; Wolbachia per cell robust z, rep 3 = 0.395; inactive.
Miox [DRSC24306] scored Wolbachia per cell robust z, rep 1 = -1.02; Wolbachia per cell robust z, rep 2 = 0.81; Wolbachia per cell robust z, rep 3 = 0.0212; inactive.
After knock-down of Smu1 [DRSC15803] the results were Wolbachia per cell robust z, rep 1 = -6.09; Wolbachia per cell robust z, rep 2 = -0.617; Wolbachia per cell robust z, rep 3 = -2.75; active.
For Spg7 [DRSC18469] the deposit lists Wolbachia per cell robust z, rep 1 = -4.13; Wolbachia per cell robust z, rep 2 = 0.428; Wolbachia per cell robust z, rep 3 = 0.588; inactive.
Knock-down of CG13131 [DRSC23253] came out at: Wolbachia per cell robust z, rep 1 = 0.562; Wolbachia per cell robust z, rep 2 = 0.995; Wolbachia per cell robust z, rep 3 = 0.134; inactive.
CG32856 [DRSC13124] showed Wolbachia per cell robust z, rep 1 = 0.416; Wolbachia per cell robust z, rep 2 = 0.000127; Wolbachia per cell robust z, rep 3 = 0.66; inactive.
After knock-down of CG32856 [DRSC29746], the screen gave Wolbachia per cell robust z, rep 1 = -0.184; Wolbachia per cell robust z, rep 2 = -0.708; Wolbachia per cell robust z, rep 3 = -0.872; inactive.
With knock-down of Argk1 [DRSC09668], the screen gave Wolbachia per cell robust z, rep 1 = -0.146; Wolbachia per cell robust z, rep 2 = -6.33; Wolbachia per cell robust z, rep 3 = -0.737; inactive.
After knock-down of Argk1 [DRSC10460], the record shows Wolbachia per cell robust z, rep 1 = 0.907; Wolbachia per cell robust z, rep 2 = -2.16; Wolbachia per cell robust z, rep 3 = 1.14; inactive.
Silencing of Argk1 [DRSC21558] resulted in: Wolbachia per cell robust z, rep 1 = 1.14; Wolbachia per cell robust z, rep 2 = -0.913; Wolbachia per cell robust z, rep 3 = 0.706; inactive.
After knock-down of Argk1 [DRSC22665] the results were Wolbachia per cell robust z, rep 1 = -0.287; Wolbachia per cell robust z, rep 2 = -0.328; Wolbachia per cell robust z, rep 3 = 0.109; inactive.
Against TP53INP [DRSC08178], the entry reads Wolbachia per cell robust z, rep 1 = 0.954; Wolbachia per cell robust z, rep 2 = 0.906; Wolbachia per cell robust z, rep 3 = -2.91; inactive.
TP53INP [DRSC22552] gave Wolbachia per cell robust z, rep 1 = 0.566; Wolbachia per cell robust z, rep 2 = 0.802; Wolbachia per cell robust z, rep 3 = 1.08; inactive.
With knock-down of TP53INP [DRSC25638] the results were Wolbachia per cell robust z, rep 1 = 0.546; Wolbachia per cell robust z, rep 2 = -1.21; Wolbachia per cell robust z, rep 3 = -13.4; inactive.
Knock-down of CG8079 [DRSC07070] came out at: Wolbachia per cell robust z, rep 1 = -0.995; Wolbachia per cell robust z, rep 2 = -1.87; Wolbachia per cell robust z, rep 3 = 0.692; inactive.
Knock-down of CG8079 [DRSC07071] gave: Wolbachia per cell robust z, rep 1 = 0.129; Wolbachia per cell robust z, rep 2 = 0.129; Wolbachia per cell robust z, rep 3 = 0.958; inactive.
For CG4194 [DRSC18520], the values are Wolbachia per cell robust z, rep 1 = 1.23; Wolbachia per cell robust z, rep 2 = -7.76; Wolbachia per cell robust z, rep 3 = -5.67; active.
Ada [DRSC14463] showed Wolbachia per cell robust z, rep 1 = 0.832; Wolbachia per cell robust z, rep 2 = 1.1; Wolbachia per cell robust z, rep 3 = 1.16; inactive.
Spf30 [DRSC11976] showed Wolbachia per cell robust z, rep 1 = 0.621; Wolbachia per cell robust z, rep 2 = -0.709; Wolbachia per cell robust z, rep 3 = -2.29; inactive.
After knock-down of l(2)gd1 [DRSC02773], the record shows Wolbachia per cell robust z, rep 1 = 0.553; Wolbachia per cell robust z, rep 2 = 0.52; Wolbachia per cell robust z, rep 3 = -0.854; inactive.
Silencing of l(2)gd1 [DRSC29178] gave: Wolbachia per cell robust z, rep 1 = -6.91; Wolbachia per cell robust z, rep 2 = -0.757; Wolbachia per cell robust z, rep 3 = -0.964; inactive.
For CG14324 [DRSC14803], the entry reads Wolbachia per cell robust z, rep 1 = -0.294; Wolbachia per cell robust z, rep 2 = 0.187; Wolbachia per cell robust z, rep 3 = -0.476; inactive.
CG14324 [DRSC24292] gave Wolbachia per cell robust z, rep 1 = -0.153; Wolbachia per cell robust z, rep 2 = 2.19; Wolbachia per cell robust z, rep 3 = 0.21; inactive.
For CG7560 [DRSC10879], the values are Wolbachia per cell robust z, rep 1 = -0.298; Wolbachia per cell robust z, rep 2 = 0.703; Wolbachia per cell robust z, rep 3 = 1.57; inactive.
Against TbCMF46 [DRSC02221] the deposit lists Wolbachia per cell robust z, rep 1 = 0.445; Wolbachia per cell robust z, rep 2 = -1.04; Wolbachia per cell robust z, rep 3 = 0.82; inactive.

Reagents above called active (2):
Smu1 [DRSC15803] → Wolbachia per cell robust z, rep 1 = -6.09; Wolbachia per cell robust z, rep 2 = -0.617; Wolbachia per cell robust z, rep 3 = -2.75; activity call = active
CG4194 [DRSC18520] → Wolbachia per cell robust z, rep 1 = 1.23; Wolbachia per cell robust z, rep 2 = -7.76; Wolbachia per cell robust z, rep 3 = -5.67; activity call = active
